Earlier results on one substance are cited in publication PMC6832962, “Identification of Crucial Residues in α-Conotoxin EI Inhibiting Muscle Nicotinic Acetylcholine Receptor” (2019).

For the series, the system named is α3β2 nAChR.

Usually IC50 stands for the concentration at which inhibition is half-maximal. GIC: the IC50 was 1.1 nM.
